In ChEMBL document CHEMBL3621085, “Tetrazole regioisomers in the development of nitro group-containing antitubercular agents” (Medchemcomm, 2015):
Converted amounts (≈) assume the structure as drawn.

Tests used:
Assay type in all cases: functional
Mycobacterium kansasii [1] = experiment: Antimycobacterial activity against Mycobacterium kansasii My 235/80 after 14 days by micromethod
Mycobacterium kansasii [2] = experiment: Antimycobacterial activity against Mycobacterium kansasii 6509/96 after 14 days by micromethod
Mycobacterium kansasii [3] = experiment: Antimycobacterial activity against Mycobacterium kansasii 6509/96 after 21 days by micromethod
Mycobacterium kansasii [4] = experiment: Antimycobacterial activity against Mycobacterium kansasii My 235/80 after 21 days by micromethod
Mycobacterium avium [5] = experiment: Antimycobacterial activity against Mycobacterium avium My 330/88 after 14 days by micromethod
Mycobacterium kansasii [6] = experiment: Antimycobacterial activity against Mycobacterium kansasii My 235/80 after 7 days by micromethod
Mycobacterium avium [7] = experiment: Antimycobacterial activity against Mycobacterium avium My 330/88 after 21 days by micromethod
[8] = system: Mycobacterium tuberculosis; experiment: Antimycobacterial activity against Mycobacterium tuberculosis My 331/88 after 14 days by micromethod
[9] = system: Mycobacterium tuberculosis; experiment: Antimycobacterial activity against Mycobacterium tuberculosis My 331/88 after 21 days by micromethod
Mycobacterium kansasii [10] = experiment: Antimycobacterial activity against Mycobacterium kansasii 6509/96 after 7 days by micromethod

| Structure (SMILES) | MIC (Mycobacterium kansasii [1]) | MIC (Mycobacterium kansasii [2]) | MIC (Mycobacterium kansasii [3]) | MIC (Mycobacterium kansasii [4]) | MIC (Mycobacterium avium [5]) | MIC (Mycobacterium kansasii [6]) | MIC (Mycobacterium avium [7]) | MIC [8] | MIC [9] | MIC (Mycobacterium kansasii [10]) |
| --- | --- | --- | --- | --- | --- | --- | --- | --- | --- | --- |
| O=[N+]([O-])c1cc(C[Se]c2nnn(Cc3ccc([N+](=O)[O-])cc3[N+](=O)[O-])n2)cc([N+](=O)[O-])c1 | 8 µM (≈ 4.07 µg/mL) | 8 µM (≈ 4.07 µg/mL) | 16 µM (≈ 8.15 µg/mL) | 16 µM (≈ 8.15 µg/mL) | 125 µM (≈ 63.7 µg/mL) | 4 µM (≈ 2.04 µg/mL) | 125 µM (≈ 63.7 µg/mL) | 2 µM (≈ 1.02 µg/mL) | 2 µM (≈ 1.02 µg/mL) | 2 µM (≈ 1.02 µg/mL) |
| O=[N+]([O-])c1ccc(C[Se]c2nnn(Cc3cc([N+](=O)[O-])cc([N+](=O)[O-])c3)n2)cc1 | 62 µM (≈ 28.8 µg/mL) | 62 µM (≈ 28.8 µg/mL) | 62 µM (≈ 28.8 µg/mL) | 62 µM (≈ 28.8 µg/mL) | 250 µM (≈ 116 µg/mL) | 32 µM (≈ 14.9 µg/mL) | 250 µM (≈ 116 µg/mL) | 32 µM (≈ 14.9 µg/mL) | 32 µM (≈ 14.9 µg/mL) | 32 µM (≈ 14.9 µg/mL) |
| O=[N+]([O-])c1cc(C[Se]c2nnnn2Cc2cc([N+](=O)[O-])cc([N+](=O)[O-])c2)cc([N+](=O)[O-])c1 | 62 µM (≈ 31.6 µg/mL) | 62 µM (≈ 31.6 µg/mL) | 62 µM (≈ 31.6 µg/mL) | 62 µM (≈ 31.6 µg/mL) | 125 µM (≈ 63.7 µg/mL) | 16 µM (≈ 8.15 µg/mL) | 125 µM (≈ 63.7 µg/mL) | 4 µM (≈ 2.04 µg/mL) | 8 µM (≈ 4.07 µg/mL) | 16 µM (≈ 8.15 µg/mL) |
| O=[N+]([O-])c1ccc(C[Se]c2nnnn2Cc2ccc([N+](=O)[O-])cc2[N+](=O)[O-])cc1 | 62 µM (≈ 28.8 µg/mL) | 62 µM (≈ 28.8 µg/mL) | 62 µM (≈ 28.8 µg/mL) | 62 µM (≈ 28.8 µg/mL) | 16 µM (≈ 7.43 µg/mL) | 32 µM (≈ 14.9 µg/mL) | 32 µM (≈ 14.9 µg/mL) | 2 µM (≈ 0.929 µg/mL) | 4 µM (≈ 1.86 µg/mL) | 32 µM (≈ 14.9 µg/mL) |
| O=[N+]([O-])c1ccc(Cn2nnc([Se]Cc3ccc([N+](=O)[O-])cc3[N+](=O)[O-])n2)cc1 | 32 µM (≈ 14.9 µg/mL) | 62 µM (≈ 28.8 µg/mL) | 62 µM (≈ 28.8 µg/mL) | 32 µM (≈ 14.9 µg/mL) | 125 µM (≈ 58 µg/mL) | 16 µM (≈ 7.43 µg/mL) | 125 µM (≈ 58 µg/mL) | 32 µM (≈ 14.9 µg/mL) | 32 µM (≈ 14.9 µg/mL) | 32 µM (≈ 14.9 µg/mL) |
| O=[N+]([O-])c1ccc(Cn2nnnc2[Se]Cc2ccc([N+](=O)[O-])cc2[N+](=O)[O-])cc1 | 32 µM (≈ 14.9 µg/mL) | 62 µM (≈ 28.8 µg/mL) | 62 µM (≈ 28.8 µg/mL) | 32 µM (≈ 14.9 µg/mL) | 62 µM (≈ 28.8 µg/mL) | 16 µM (≈ 7.43 µg/mL) | 62 µM (≈ 28.8 µg/mL) | 16 µM (≈ 7.43 µg/mL) | 16 µM (≈ 7.43 µg/mL) | 32 µM (≈ 14.9 µg/mL) |
| O=[N+]([O-])c1cc(CSc2nnnn2Cc2cc([N+](=O)[O-])cc([N+](=O)[O-])c2)cc([N+](=O)[O-])c1 | 8 µM (≈ 3.7 µg/mL) | 16 µM (≈ 7.4 µg/mL) | 32 µM (≈ 14.8 µg/mL) | 8 µM (≈ 3.7 µg/mL) | 250 µM (≈ 116 µg/mL) | 4 µM (≈ 1.85 µg/mL) | 250 µM (≈ 116 µg/mL) | 4 µM (≈ 1.85 µg/mL) | 8 µM (≈ 3.7 µg/mL) | 8 µM (≈ 3.7 µg/mL) |
| O=[N+]([O-])c1ccc(Cn2nnnc2SCc2ccc([N+](=O)[O-])cc2[N+](=O)[O-])cc1 | 62 µM (≈ 25.9 µg/mL) | 62 µM (≈ 25.9 µg/mL) | 62 µM (≈ 25.9 µg/mL) | 62 µM (≈ 25.9 µg/mL) | 62 µM (≈ 25.9 µg/mL) | 32 µM (≈ 13.4 µg/mL) | 62 µM (≈ 25.9 µg/mL) | 4 µM (≈ 1.67 µg/mL) | 4 µM (≈ 1.67 µg/mL) | 32 µM (≈ 13.4 µg/mL) |
| O=[N+]([O-])c1cc(Cn2nnc([Se]Cc3ccc([N+](=O)[O-])cc3[N+](=O)[O-])n2)cc([N+](=O)[O-])c1 | 16 µM (≈ 8.15 µg/mL) | 32 µM (≈ 16.3 µg/mL) | 62 µM (≈ 31.6 µg/mL) | 32 µM (≈ 16.3 µg/mL) | 250 µM (≈ 127 µg/mL) | 8 µM (≈ 4.07 µg/mL) | 250 µM (≈ 127 µg/mL) | 16 µM (≈ 8.15 µg/mL) | 16 µM (≈ 8.15 µg/mL) | 16 µM (≈ 8.15 µg/mL) |
| O=[N+]([O-])c1ccc(C[Se]c2nnnn2Cc2cc([N+](=O)[O-])cc([N+](=O)[O-])c2)cc1 | 32 µM (≈ 14.9 µg/mL) | 32 µM (≈ 14.9 µg/mL) | 62 µM (≈ 28.8 µg/mL) | 32 µM (≈ 14.9 µg/mL) | 250 µM (≈ 116 µg/mL) | 16 µM (≈ 7.43 µg/mL) | 250 µM (≈ 116 µg/mL) | 8 µM (≈ 3.71 µg/mL) | 8 µM (≈ 3.71 µg/mL) | 32 µM (≈ 14.9 µg/mL) |
| O=[N+]([O-])c1ccc(Cn2nnc([Se]Cc3cc([N+](=O)[O-])cc([N+](=O)[O-])c3)n2)cc1 | 2 µM (≈ 0.929 µg/mL) | 4 µM (≈ 1.86 µg/mL) | 4 µM (≈ 1.86 µg/mL) | 4 µM (≈ 1.86 µg/mL) | 125 µM (≈ 58 µg/mL) | 1 µM (≈ 0.464 µg/mL) | 125 µM (≈ 58 µg/mL) | 1 µM (≈ 0.464 µg/mL) | 1 µM (≈ 0.464 µg/mL) | 2 µM (≈ 0.929 µg/mL) |
| O=[N+]([O-])c1ccc(C[Se]c2nnn(Cc3ccc([N+](=O)[O-])cc3[N+](=O)[O-])n2)cc1 | 2 µM (≈ 0.929 µg/mL) | 4 µM (≈ 1.86 µg/mL) | 8 µM (≈ 3.71 µg/mL) | 2 µM (≈ 0.929 µg/mL) | 8 µM (≈ 3.71 µg/mL) | 1 µM (≈ 0.464 µg/mL) | 16 µM (≈ 7.43 µg/mL) | 2 µM (≈ 0.929 µg/mL) | 2 µM (≈ 0.929 µg/mL) | 2 µM (≈ 0.929 µg/mL) |
